The text below walks through data of paper PMC10128061, “Targeting Sterylglucosidase A to Treat Aspergillus fumigatus Infections” (mBio, 2023).

Sequences of proteins named here, by UniProt entry; tags and fusion partners are left off. Residues count along the entry.
UniProt Q4WXA7, 1-759: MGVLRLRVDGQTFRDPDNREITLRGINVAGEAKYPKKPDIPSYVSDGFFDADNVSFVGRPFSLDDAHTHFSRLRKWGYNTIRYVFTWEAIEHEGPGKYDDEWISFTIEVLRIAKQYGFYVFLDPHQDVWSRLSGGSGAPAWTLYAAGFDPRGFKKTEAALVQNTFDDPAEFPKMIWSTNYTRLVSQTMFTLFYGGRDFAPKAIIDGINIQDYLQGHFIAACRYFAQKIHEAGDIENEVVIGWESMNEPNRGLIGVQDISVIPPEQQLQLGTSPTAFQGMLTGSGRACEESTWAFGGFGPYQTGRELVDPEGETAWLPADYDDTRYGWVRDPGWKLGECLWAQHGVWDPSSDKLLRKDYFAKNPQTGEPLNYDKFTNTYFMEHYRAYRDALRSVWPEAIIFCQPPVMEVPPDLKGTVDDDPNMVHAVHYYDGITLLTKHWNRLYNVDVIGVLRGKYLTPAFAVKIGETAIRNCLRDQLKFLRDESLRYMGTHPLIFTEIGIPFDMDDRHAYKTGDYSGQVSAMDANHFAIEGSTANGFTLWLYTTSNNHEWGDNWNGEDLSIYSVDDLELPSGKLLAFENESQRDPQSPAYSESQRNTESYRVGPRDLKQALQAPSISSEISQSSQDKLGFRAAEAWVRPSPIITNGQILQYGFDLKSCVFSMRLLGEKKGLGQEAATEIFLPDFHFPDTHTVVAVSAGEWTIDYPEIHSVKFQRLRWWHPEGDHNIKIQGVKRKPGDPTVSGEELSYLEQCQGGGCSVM

Each structure is given as a SMILES string.

The assay concerns the target Af SglA (Aspergillus fumigatus, UniProt Q4WXA7). The experiment in a line: HTS / resorufin 3β-D-glucopyranoside (ResGlp) enzymatic assay of SglA. The class given is biochemical. To be noted: primary screen, ResGlp as the substrate, single compounds 0.25 to 4 μM. The protocol: Resorufin 3β-D-glucopyranoside (ResGlp; Sigma-Aldrich) enzyme kinetic assays were performed according to methods described by Pereira de Sa et al. ([17]). Reaction buffer contained 50 mM citric acid, 176 mM K2HPO4 (pH 6), 0.01% Tween 20, and 10 mM sodium taurocholate. The reaction was carried out in a black 96-well plate using 0.23 pmol of SglA with 100 μM ResGlp substrate. 10 μL/well of ResGlp was added to each well and the reaction was initiated by adding 20 μL enzyme (0.23 pmol). After incubation at 37°C for 30 min, the fluorescence was read at an excitation of 570 (±10) nm and an emission of 610 (±10) nm on a VersaMax microplate reader from Molecular Devices. A standard curve was prepared with serial dilutions of the free fluorophore, resorufin, in the same volume of assay buffer. All reactions were linear with respect to time and protein concentration, and the pH, temperature, and dimethyl sulfoxide (DMSO) optimal tolerance were verified.
A ChemBridge DIVERSet-CL library (ChemBridge, San Diego, CA) containing 50,000 compounds was screened to identify small molecules that inhibit Af SglA. The library was prepared in a 96-well plate format containing a cocktail of 10 compounds per well at 1 mM each in 100% DMSO. The cocktail plates were first diluted to 100 μM each (1:10 dilution in Dulbecco’s phosphate-buffered saline [DPBS]), resulting in 10% DMSO. In order to screen the compound cocktails at […] in 1% DMSO in a final reaction volume of 30 μL, an aliquot of 3 μL was added to 17 μL of buffer containing 0.23 pmol of enzyme and the reaction was started by adding 10 μL of 100 μM ResGlp. A negative control without enzyme and positive controls with and without DMSO were prepared. The plates were incubated at 37°C for 30 min. The Z′ factor was used for the assessment of the efficiency of the HTS assay for each plate. Values greater than 0.5 are considered indicators of excellent screening assay quality ([36]).
Regarding `Cc1[nH]c2ccc(CNc3nccc(N)n3)cc2c1C`, the IC50 (as a rule, the concentration at which inhibition is half-maximal) was found to be 1000 nM.

In the case of `COc1cccc(-n2cc(CN(C)Cc3ccc(O)c(Cl)c3)cn2)c1`, the IC50 was 1000 nM.

In turn, `Cc1cc2c(N3CCCC(c4nccn4CC4CCC4)C3)ncnc2s1` (centres unmarked) registered an IC50 of 2000 nM.

In turn, `COc1cc(CNCc2cc(C)cc3c(C)c(C)[nH]c23)cc2c1OCO2` yielded an IC50 of 1000 nM.

For the molecule `CCNc1ccnc(NCc2cccnc2Oc2ccc(F)cc2F)n1`, the IC50 was 500 nM. Against the preceding molecule, the IC50 is about 2-fold lower.

The molecule `Cc1cc(NCc2ccc3[nH]c(C)c(C)c3c2)nc(N)n1` gave an IC50 of 1000 nM.

Molecule `CCc1[nH]c2ccc(CNc3nccc(N4CCCC(O)C4)n3)cc2c1C` (centres unmarked) came in with an IC50 of 2000 nM. Against the preceding molecule, the IC50 is about 2-fold higher.

In turn, `c1cc2c(c(-c3cccc4[nH]ccc34)c1)CCNC2` displayed a half-maximal inhibitory concentration (IC50) of 2000 nM.

Consider `CC(C)Nc1ccnc(NCc2cccnc2Oc2ccc(F)cc2F)n1`, for which the IC50 came out at 500 nM.

`CCc1[nH]c2ccc(CNCc3cc(OC)c4c(c3)OCO4)cc2c1C` yielded an IC50 of 1000 nM. Against the preceding molecule, the IC50 is about 2-fold higher.

With `CNc1cc(C)nc(NCc2ccc3[nH]c(C)c(C)c3c2)n1`, the IC50 came out at 500 nM.
